Results of unrelated studies side by side (data: NIAID ChemDB).

Common to all: growth or infection tests

A number after MIC or MFC names an inhibition level or a share of isolates. ECn is the concentration giving n% inhibition of infection, replication or growth. Percent inhibition refers to the dose given; in toxicity tests it is the harm to the cells. An empty or dashed field is not shown. Lines come from different laboratories, so protocols vary.

Cc1cc(CCCOc2c(C)cc(-c3noc(C(F)(F)F)n3)cc2C)on1 ; cells: OHIO HELA-I ; agent: Rhinovirus ; read-out: EC50 ; strain or isolate: Isolate 43 ; method: cytopathic effect / visual reading ; value: 0.05 µg/mL
O=S(=O)([O-])c1ccc(NS(=O)(=O)c2ccccc2)c2c(S(=O)(=O)[O-])cccc12 ; cells: Human embryonic lung cells ; agent: Adenovirus ; read-out: inhibition ; tested at: 10 µg/mL ; strain or isolate: TYPE 3 ; method: cytopathic effect ; value: 0%
CCC(CC)O[C@@H]1C=C(C(=O)O)C[C@H](N)[C@H]1NC(C)=O ; cells: MDCK ; agent: Influenza B virus ; read-out: EC50 ; strain or isolate: Panama/45/90 ; value: 1.5 µM
CCOC(=O)c1c(C)nc(NCCCNc2ccnc3cc(Cl)ccc23)nc1-c1ccccc1 ; agent: Cryptococcus gattii ; read-out: MIC99 ; strain or isolate: L 27/01 ; value: 32 µg/mL
CCc1cn([C@@H]2O[C@H](CO)[C@@H](O)[C@@H]2O)c(=O)[nH]c1=O ; cells: HELF ; agent: Varicella zoster virus ; read-out: inhibition ; tested at: 1000 µg/mL ; strain or isolate: Asahikawa ; method: plaque count ; value: 96%
Oc1ccccc1C=Nc1ccccc1O ; agent: Cryptococcus gattii ; read-out: MIC99 ; strain or isolate: 547/OTTI-97-PI-10 ; value: 11.3 µg/mL
O=C(Nc1cc(S(=O)(=O)O)cc2cc(S(=O)(=O)O)cc(O)c12)c1ccccc1 ; cells: Human amnion AV3 cells ; agent: Rhinovirus ; read-out: inhibition ; tested at: 50 µg/mL ; method: cytopathic effect ; value: 40%
CC(C)(O)c1cn(-c2ccc3ccccc3c2)nn1 ; agent: Candida krusei ; read-out: inhibition ; tested at: 2048 µg/mL ; strain or isolate: URM 4263 ; method: broth dilution ; value: 0%
O=S(=O)([O-])c1ccc(O)cc1 ; cells: Human embryonic lung cells ; agent: Adenovirus ; read-out: inhibition ; tested at: 5 µg/mL ; strain or isolate: TYPE 3 ; method: cytopathic effect ; value: 0%
CCO/N=C/c1ccc(OCCC2CCN(c3ccc(Cl)nn3)CC2)cc1 ; cells: KB ; agent: Rhinovirus ; read-out: EC50 ; strain or isolate: 47-CV21 (ICAM-1 receptor group 21) ; method: neutral red ; value: 0.258 µM
O=c1[nH]c(=O)n([C@@H]2O[C@H](CO)[C@@H](O)[C@@H]2O)cc1/C=C/Br ; cells: HELF ; agent: Varicella zoster virus ; read-out: inhibition ; tested at: 0.001 µg/mL ; strain or isolate: Asahikawa ; method: plaque count ; value: 96%
CCOC(=O)c1c(C)nc(NCCCCNc2ccnc3cc(Cl)ccc23)nc1-c1ccccc1[N+](=O)[O-] ; agent: Cryptococcus gattii ; read-out: MIC99 ; strain or isolate: L 27/01 ; value: 32 µg/mL
O=c1[nH]c(=O)n([C@@H]2O[C@H](CO)[C@@H](O)[C@@H]2O)cc1/C=C/Cl ; cells: HELF ; agent: Varicella zoster virus ; read-out: inhibition ; tested at: 0.01 µg/mL ; strain or isolate: HIRAI ; method: plaque count ; value: 100%
O=C(Nc1cc(S(=O)(=O)[O-])cc2cc(S(=O)(=O)[O-])ccc12)c1ccccc1 ; cells: Human amnion AV3 cells ; agent: Herpes simplex virus ; read-out: inhibition ; tested at: 5 µg/mL ; method: cytopathic effect ; value: 0%
CC(C)(O)c1cn(-c2ccc(Cl)cc2)nn1 ; agent: Candida parapsilosis ; read-out: MIC ; strain or isolate: URM 4608 ; method: broth dilution ; value: 128 µg/mL
C=CCc1ccc(O)c(OC)c1 ; agent: Candida tropicalis ; read-out: MIC90 ; strain or isolate: 2960 ; method: turbidity ; value: 480 µg/mL
Cc1ccc(-n2cc(C(C)(C)O)nn2)cc1C ; agent: Candida albicans ; read-out: inhibition ; tested at: 2048 µg/mL ; strain or isolate: URM 4990 ; method: broth dilution ; value: 0%
Oc1ccccc1N=Cc1ccc2c(c1)OCO2 ; agent: Cryptococcus neoformans ; read-out: MIC ; strain or isolate: 28JF ; method: broth dilution ; value: 11.3 µg/mL
O=C1C(c2[nH]c3ccc(S(=O)(=O)O)cc3c2O)=Nc2ccc(S(=O)(=O)O)cc21 ; cells: Human embryonic lung cells ; agent: Rhinovirus ; read-out: inhibition ; tested at: 10 µg/mL ; method: cytopathic effect ; value: 0%
Nc1nc(=O)n([C@@H]2O[C@H](CO)[C@@H](O)[C@@H]2F)cc1I ; cells: HELF ; agent: Varicella zoster virus ; read-out: inhibition ; tested at: 0.01 µg/mL ; strain or isolate: Ohtomo ; method: plaque count ; value: 95%
Nc1cc(S(=O)(=O)[O-])cc2cc(S(=O)(=O)[O-])ccc12 ; cells: Human conjunctiva cells ; agent: Herpes simplex virus ; read-out: inhibition ; tested at: 50 µg/mL ; method: cytopathic effect ; value: 0%
Oc1ccc(O)c(C=Nc2ccccc2O)c1 ; agent: Cryptococcus gattii ; read-out: MIC99 ; strain or isolate: ATCC 24065 ; value: 8 µg/mL
Cc1cc(-c2ccc(N=Nc3ccc4c(S(=O)(=O)O)cc(S(=O)(=O)O)c(N)c4c3O)c(C)c2)ccc1N=Nc1ccc2c(S(=O)(=O)O)cc(S(=O)(=O)O)c(N)c2c1O ; cells: Human amnion AV3 cells ; agent: Adenovirus ; read-out: inhibition ; tested at: 5 µg/mL ; strain or isolate: TYPE 3 ; method: cytopathic effect ; value: 0%
Nc1nc2c(ncn2COCCO)c(=O)[nH]1 ; cells: HELF ; agent: Varicella zoster virus ; read-out: inhibition ; tested at: 10 µg/mL ; strain or isolate: YS ; method: plaque count ; value: 100%
CC(C)(O)c1cn(-c2cccc3ccccc23)nn1 ; agent: Candida parapsilosis ; read-out: inhibition ; tested at: 2048 µg/mL ; strain or isolate: URM 3621 ; method: broth dilution ; value: 0%
O=C(Nc1ccc2cc(S(=O)(=O)[O-])cc(S(=O)(=O)[O-])c2c1)c1ccccc1 ; cells: Human embryonic lung cells ; agent: Rhinovirus ; read-out: inhibition ; tested at: 10 µg/mL ; method: cytopathic effect ; value: 50%
Cn1cc(C(=O)NCc2ccc(Cl)cc2)c(=O)c2cc(CN3CCOCC3)ccc21 ; cells: HFF ; agent: Varicella zoster virus ; read-out: inhibition ; tested at: 4.9 µM ; strain or isolate: MC varicella isolate ; method: plaque count ; value: 90%
Cc1cc(-c2ccc(N=Nc3c(N)c(S(=O)(=O)O)cc4cc(S(=O)(=O)O)ccc34)c(C)c2)ccc1N=Nc1c(N)ccc2cc(S(=O)(=O)O)ccc12 ; cells: Human embryonic lung cells ; agent: Adenovirus ; read-out: inhibition ; tested at: 5 µg/mL ; strain or isolate: TYPE 3 ; method: cytopathic effect ; value: 0%
C/C=C\[C@@H]1C[C@H](C(=O)O)N[C@H]1[C@@H](NC(C)=O)[C@](C)(CCC)OC ; cells: MDCK ; agent: Influenza A virus ; read-out: EC50 ; strain or isolate: H1N1 isolate C28C ; method: plaque count ; value: ≤0.015 µg/mL

The last 2 rows once more:

compound,cells,agent,read-out,tested at,strain or isolate,method,value
Cc1cc(-c2ccc(N=Nc3c(N)c(S(=O)(=O)O)cc4cc(S(=O)(=O)O)ccc34)c(C)c2)ccc1N=Nc1c(N)ccc2cc(S(=O)(=O)O)ccc12,Human embryonic lung cells,Adenovirus,inhibition,5 µg/mL,TYPE 3,cytopathic effect,0%
C/C=C\[C@@H]1C[C@H](C(=O)O)N[C@H]1[C@@H](NC(C)=O)[C@](C)(CCC)OC,MDCK,Influenza A virus,EC50,-,H1N1 isolate C28C,plaque count,≤0.015 µg/mL